Record: PubChem BioAssay AID1259414 (Drosophila RNAi Screening Center, 2018)

Test: 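Fly genes that alter Wolbachia amount inside host cells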 (primary screen)
Cell system: Drosophila JW18 cells infected with Wolbachia
Knock-down reagent: long dsRNA against Drosophila genes, 0.25 µg dsRNA per well of a 384-well plate
Duration: 5 days
Conditions: cells persistently infected with Wolbachia before knock-down; no added drug
Measurement: 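Automated imaging of bacterial rRNA staining divided by host cell count, reported as plate-normalised robust z-score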
Reading the numbers: Wolbachia per cell robust z: higher = more Wolbachia per host cell than the plate typical
Call rule: 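Active if absolute robust z reaches 1.5 in two or more of three replicates, leaving out multi- or no-target dsRNAs, genes unexpressed in JW18 and A1 wells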
The deposit covers about 24,000 reagents; this is a random part of those with a known target gene and a result. Over the whole deposit, about 1,210 (5%) were called active. 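Inactive calls also include excluded dsRNAs with several or no targets, genes unexpressed in JW18, and well A1, regardless of score.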 A number with no mark means an inactive call. No sequences are given here.

CG6933 (GeneID 40214) [DRSC10751] → Wolbachia per cell robust z, rep 1: -2.34; Wolbachia per cell robust z, rep 2: 0.0534; Wolbachia per cell robust z, rep 3: -0.131
CG12229 (GeneID 39945) [DRSC09868] → Wolbachia per cell robust z, rep 1: -0.512; Wolbachia per cell robust z, rep 2: 0.77; Wolbachia per cell robust z, rep 3: -0.433
NitFhit (GeneID 38029) [DRSC08680] → Wolbachia per cell robust z, rep 1: -0.972; Wolbachia per cell robust z, rep 2: -0.897; Wolbachia per cell robust z, rep 3: -2.82
NitFhit (GeneID 38029) [DRSC28018] → Wolbachia per cell robust z, rep 1: -0.983; Wolbachia per cell robust z, rep 2: 0.243; Wolbachia per cell robust z, rep 3: -2.14
NitFhit (GeneID 38029) [DRSC41565] → Wolbachia per cell robust z, rep 1: -1.19; Wolbachia per cell robust z, rep 2: -0.507; Wolbachia per cell robust z, rep 3: -2.91
CG3420 (GeneID 35585) [DRSC04995] → Wolbachia per cell robust z, rep 1: 0.617; Wolbachia per cell robust z, rep 2: 1.21; Wolbachia per cell robust z, rep 3: -0.539
CG3909 (GeneID 41226) [DRSC14150] → Wolbachia per cell robust z, rep 1: -1.51; Wolbachia per cell robust z, rep 2: -0.00763; Wolbachia per cell robust z, rep 3: 0.0933
Rbcn-3A (GeneID 31557) [DRSC18314] → Wolbachia per cell robust z, rep 1: -0.33; Wolbachia per cell robust z, rep 2: -0.464; Wolbachia per cell robust z, rep 3: 0.204
Rbcn-3A (GeneID 31557) [DRSC28199] → Wolbachia per cell robust z, rep 1: -0.457; Wolbachia per cell robust z, rep 2: -0.737; Wolbachia per cell robust z, rep 3: 0.153
CG15056 (GeneID 32824) [DRSC19630] → Wolbachia per cell robust z, rep 1: -4.34; Wolbachia per cell robust z, rep 2: -0.209; Wolbachia per cell robust z, rep 3: -1.63
Tbc1d22 (GeneID 42498) [DRSC15867] → Wolbachia per cell robust z, rep 1: -0.542; Wolbachia per cell robust z, rep 2: -1.01; Wolbachia per cell robust z, rep 3: 0.127

Part of the list above, showing only “Wolbachia per cell robust z, rep 3”:
NitFhit (GeneID 38029) [DRSC08680]: -2.82
NitFhit (GeneID 38029) [DRSC28018]: -2.14

Additional entries follow.
CG12715 (GeneID 32252) [DRSC19492] → Wolbachia per cell robust z, rep 1: -0.0641; Wolbachia per cell robust z, rep 2: -0.485; Wolbachia per cell robust z, rep 3: 0.546
LpR2 (GeneID 43105) [DRSC13726] → Wolbachia per cell robust z, rep 1: 0.0559; Wolbachia per cell robust z, rep 2: -0.281; Wolbachia per cell robust z, rep 3: 0.241
LpR2 (GeneID 43105) [DRSC13728] → Wolbachia per cell robust z, rep 1: -0.429; Wolbachia per cell robust z, rep 2: 0.422; Wolbachia per cell robust z, rep 3: 0.394
LpR2 (GeneID 43105) [DRSC15655] → Wolbachia per cell robust z, rep 1: 1.09; Wolbachia per cell robust z, rep 2: -0.518; Wolbachia per cell robust z, rep 3: -0.861
LpR2 (GeneID 43105) [DRSC25588] → Wolbachia per cell robust z, rep 1: 0.605; Wolbachia per cell robust z, rep 2: 0.524; Wolbachia per cell robust z, rep 3: 0.66
CCT2 (GeneID 31838) [DRSC18415] → Wolbachia per cell robust z, rep 1: -0.354; Wolbachia per cell robust z, rep 2: 1.18; Wolbachia per cell robust z, rep 3: -9.31
CCT2 (GeneID 31838) [DRSC27831] → Wolbachia per cell robust z, rep 1: -0.0542; Wolbachia per cell robust z, rep 2: 0.0369; Wolbachia per cell robust z, rep 3: -0.825
CCT2 (GeneID 31838) [DRSC38995] → Wolbachia per cell robust z, rep 1: 1.29; Wolbachia per cell robust z, rep 2: 0.695; Wolbachia per cell robust z, rep 3: -1.49
CCT2 (GeneID 31838) [DRSC40662] → Wolbachia per cell robust z, rep 1: 0.903; Wolbachia per cell robust z, rep 2: 1.08; Wolbachia per cell robust z, rep 3: 0.878
CG42750 (GeneID 35090) [DRSC03019] → Wolbachia per cell robust z, rep 1: -0.448; Wolbachia per cell robust z, rep 2: 0.208; Wolbachia per cell robust z, rep 3: -4.79
CG42750 (GeneID 35090) [DRSC03024] → Wolbachia per cell robust z, rep 1: 0.743; Wolbachia per cell robust z, rep 2: -0.349; Wolbachia per cell robust z, rep 3: -1.09
CG42750 (GeneID 35090) [DRSC21414] → Wolbachia per cell robust z, rep 1: -0.932; Wolbachia per cell robust z, rep 2: 1.28; Wolbachia per cell robust z, rep 3: -0.633
CG42750 (GeneID 35090) [DRSC23218] → Wolbachia per cell robust z, rep 1: 0.468; Wolbachia per cell robust z, rep 2: 0.675; Wolbachia per cell robust z, rep 3: 0.749
CG42750 (GeneID 35090) [DRSC28148] → Wolbachia per cell robust z, rep 1: -0.386; Wolbachia per cell robust z, rep 2: 0.897; Wolbachia per cell robust z, rep 3: -0.323
CG42750 (GeneID 35090) [DRSC28791] → Wolbachia per cell robust z, rep 1: -0.603; Wolbachia per cell robust z, rep 2: -1.03; Wolbachia per cell robust z, rep 3: 0.0476
Frmd5 (GeneID 34398) [DRSC02802] → Wolbachia per cell robust z, rep 1: -0.829; Wolbachia per cell robust z, rep 2: 0.604; Wolbachia per cell robust z, rep 3: -2.13
Vti1a (GeneID 38085) [DRSC08563] → Wolbachia per cell robust z, rep 1: 0.195; Wolbachia per cell robust z, rep 2: -0.391; Wolbachia per cell robust z, rep 3: -0.649
CG3368 (GeneID 43292) [DRSC15485] → Wolbachia per cell robust z, rep 1: -1.42; Wolbachia per cell robust z, rep 2: 0.82; Wolbachia per cell robust z, rep 3: 0.879
Dus2 (GeneID 32377) [DRSC19591] → Wolbachia per cell robust z, rep 1: -2.98; Wolbachia per cell robust z, rep 2: 0.369; Wolbachia per cell robust z, rep 3: -0.384
